Compound potency records, mixed from different reports. Data source: NIAID ChemDB in PubChem.

Common to all: whole-cell or culture tests; organism: HIV-1

Percent inhibition refers to the dose given; in toxicity tests it is the harm to the cells. Blank or dashed fields: not listed here. ECn: concentration that inhibits the pathogen or its effect by n%. Two numbers with a dash give a range or band. Neighbouring rows are from separate reports. Fold resistance: result on the changed form divided by that on wild type.

structure | strain or isolate | changes | cells | read by | read-out | dose | result
CC(C)C1=C2[C@H]3CC[C@@H]4[C@@]5(C)CC[C@H](OC(=O)[C@H]6C[C@@H](C(=O)O)C6(C)C)C(C)(C)[C@@H]5CC[C@@]4(C)[C@]3(C)CC[C@@]2([C@@H](O)CNCc2ccc(Cl)cc2OCCN(C)C)CC1=O | 92HT599 |  | MT-2 | p24 / ELISA | EC50 |  | <1 µM
O=C(c1ccccc1)N(CCc1ccccc1)C[C@H](O)CN(CC1CCCC1)S(=O)(=O)c1ccncc1 | IIIB |  | CEM | p24 | EC90 |  | 1 µM
COC(=O)C1=CN(C(=O)C(=O)c2c[nH]c3c(C(=O)OC)cccc23)CCN1C(=O)c1ccccc1 |  |  | HeLa + HELA CD4+/CCR5 | luciferase | inhibition | 10 µM | 92%
O=C(NCCc1ccccc1)Nc1nc2ccccc2s1 |  |  | MT-4 | RT activity | inhibition | 10 µg/mL | 96%
Cc1cc(S(N)(=O)=O)ccc1NC(=O)COc1ccc(Cl)cc1C(=O)c1cc(Cl)cc(C#N)c1 | HXB2 | RT-K103N V108I | HeLa + HELA CD4+ | β-galactosidase | fold resistance |  | ~1
Cc1cn(-c2ccc(C(=O)NC[C@H](O)[C@@]34CC[C@]5(C)[C@H](CC[C@@H]6[C@@]7(C)CC[C@H](OC(=O)[C@H]8C[C@@H](C(=O)O)C8(C)C)C(C)(C)[C@@H]7CC[C@]65C)C3=C(C(C)C)C(=O)C4)cc2)cn1 | 92HT599 |  | MT-2 | p24 / ELISA | EC50 |  | <1 µM
COc1ccc(S(=O)(=O)N(CC2CCCC2)C[C@@H](O)CN(CCc2ccccc2)C(=O)c2cccc(O)c2C)cc1 | IIIB |  | CEM | p24 | EC90 |  | 0.1 µM
C[C@H]1[C@H](O)[C@@H](C)/C=C/C=C/C=C/C=C/C=C/C=C/C=C/[C@H](O[C@@H]2O[C@H](C)[C@@H](O)[C@H](N)[C@@H]2O)C[C@@H]2O[C@](O)(C[C@@H](O)C[C@@H](O)CC[C@H](O)[C@@H](O)C[C@@H](O)CC(=O)O[C@H]1C)C[C@H](O)[C@H]2C(=O)O | NL4-3 WT |  | PBL | RT activity | inhibition | 10 µM | 90%
CCc1cc(C#N)cc(C(=O)c2cc(Cl)ccc2OCC(=O)Nc2ccc(S(N)(=O)=O)cc2C)c1 | HXB2 | RT-V106A Y181C | HeLa + HELA CD4+ | β-galactosidase | fold resistance |  | ~1
O=C(O)c1cc(-n2cccc2)ccc1Cl | BCF02 R5 GROUP O |  | PBMC + MT-2 | p24 | EC90 |  | 54.5 µM
Cc1cc(C#N)cc(C(=O)c2cc(Cl)ccc2OCC(=O)Nc2cnc(S(N)(=O)=O)cc2C)c1 | HXB2 | RT-P236L | HeLa + HELA CD4+ | β-galactosidase | fold resistance |  | ~1
C[C@@H]1CCO[C@H]2Cn3cc(C(=O)NCc4ccc(F)cc4F)c(=O)c(O)c3C(=O)N12 | NL4-3 | M50I | CBMC | RT activity | fold resistance |  | 1
N#Cc1csc(NC(=O)NCCc2ccccc2)n1 |  |  | MT-4 | RT activity | inhibition | 0.1 µg/mL | 99%
O=C(C(=O)N1CCN(C(=O)c2ccccc2)CC1C(F)(F)F)c1c[nH]c2cccc(F)c12 |  |  | HeLa + HELA CD4+/CCR5 | luciferase | inhibition | 10 µM | 91%
CN1C(C)(C)CC(n2c(=O)c(O)c3n(c2=O)CCN(Cc2ccc(F)cc2)C3=O)CC1(C)C |  |  | MT-4 | p24 | EC95 |  | <10 µM
COc1ccc(S(=O)(=O)N(CC(C)C)C[C@@H](O)CCN(CCc2ccccc2)C(=O)O[C@H]2CCOC2)cc1 | IIIB |  | CEM | p24 | EC90 |  | 1 µM
Cc1nc2ccc(CNC[C@H](O)[C@@]34CC[C@]5(C)[C@H](CC[C@@H]6[C@@]7(C)CC[C@H](OC(=O)[C@H]8C[C@@H](C(=O)O)C8(C)C)C(C)(C)[C@@H]7CC[C@]65C)C3=C(C(C)C)C(=O)C4)cc2[nH]1 | 92HT599 |  | MT-2 | p24 / ELISA | EC50 |  | <1 µM
CC(C)n1c(=O)c(O)c2n(c1=O)CCN(Cc1ccc3ccccc3c1)C2=O |  |  | MT-4 | p24 | EC95 |  | <10 µM
O=C(NCCc1ccccc1)Nc1nc2ccc(F)cc2s1 |  |  | MT-4 | RT activity | inhibition | 0.1 µg/mL | 1%
COc1ccc(C(=O)NC(C)(C)C(=O)NC[C@H](O)[C@@]23CC[C@]4(C)[C@H](CC[C@@H]5[C@@]6(C)CC[C@H](OC(=O)[C@H]7C[C@@H](C(=O)O)C7(C)C)C(C)(C)[C@@H]6CC[C@]54C)C2=C(C(C)C)C(=O)C3)cc1 | 92HT599 |  | MT-2 | p24 / ELISA | EC50 |  | <1 µM
COc1ccnc2[nH]cc(C(=O)C(=O)N3C4CCCC3CN(C(=O)c3ccccc3)C4)c12 | SF162 |  | TZM-bl | luciferase | EC99 |  | 120 µM
Cc1cc(C#N)cc(C(=O)c2cc(Cl)ccc2OCC(=O)Nc2ccc(S(N)(=O)=O)nc2C)c1 | HXB2 | RT-V106A Y181C | HeLa + HELA CD4+ | β-galactosidase | fold resistance |  | ~1
O=C(C(=O)N1CCN(C(=O)c2ccccc2)CC1)c1c[nH]c2c(Br)cc(F)cc12 |  |  | HeLa + HELA CD4+/CCR5 | luciferase | inhibition | 10 µM | 75%
Cc1cc(CNC(=O)c2nc3n(c(=O)c2O)CCN(CC2CC2)CC3N(C)C(=O)C(=O)N(C)C)ccc1F |  |  | MT-4 | p24 | EC95 |  | <1 µM
Cc1cc(OCCCS(N)(=O)=O)ccc1NC(=O)COc1ccc(Cl)cc1C(=O)c1cc(F)cc(C(F)(F)F)c1 | HXB2 | RT-Y188C | HeLa + HELA CD4+ | β-galactosidase | fold resistance |  | ~1
CC(C)C1=C2[C@H]3CC[C@@H]4[C@@]5(C)CC[C@H](OC(=O)[C@H]6C[C@@H](C(=O)O)C6(C)C)C(C)(C)[C@@H]5CC[C@@]4(C)[C@]3(C)CC[C@@]2([C@@H](O)CNC(=O)C2CCC2)CC1=O | 92HT599 |  | MT-2 | p24 / ELISA | EC50 |  | <1 µM
Nc1nc(=O)n([C@H]2C=C[C@@H](CO)O2)cc1F | XM-AZT-resistant | RT-M41L D67N K70R T215Y K219Q | MT-4 | p24 | EC90 |  | 1.6 µM
CC(C)=CCOc1cc(NC(=S)c2ccoc2C)ccc1Cl | Pyridinone-resistant (RT Y181C K103N) | RT-K103N Y181C | CEM + CEM-SS | cytopathic effect / XTT | EC50 |  | >2 µM
O=C1Nc2ccc(F)c(F)c2[C@@](C#CC2CC2)(C(F)(F)F)N1 |  | RT-V108I |  |  | EC90 |  | <0.012 µM
Cc1nc(NC(=O)NCCc2ccccc2)sc1C |  |  | MT-4 | RT activity | inhibition | 1 µg/mL | 23%
CC(C)[C@H](NC(=O)OCc1ccccn1)C(=O)N[C@@H](Cc1ccccc1)[C@@H](O)C[C@H](Cc1ccccc1)NC(=O)OCc1cccnc1 | NL4-3 | PR-L10R M46I L63P V82T | MT-4 | p24 | EC95 |  | 3 µM
O=C(NCc1ccc(F)cc1)c1nc2n(c(=O)c1O)CCN(Cc1cocn1)C21CC1 |  |  | MT-4 | p24 | EC95 |  | <1 µM
C[C@@H]1CN(C(=O)c2ccccc2)CCN1C(=O)C(=O)c1c[nH]c2cccc(F)c12 |  |  | HeLa + HELA CD4+/CCR5 | luciferase | inhibition | 10 µM | >98%
Nc1nc(NC2CC2)c2ncn([C@H]3C=C[C@@H](CO)C3)c2n1 | XM-ABC-resistant | RT-K65R L74V M184V Y115F | MT-4 | p24 | EC90 |  | 100 µM
Nc1cccc(S(=O)(=O)N(CC2CCCC2)C[C@@H](O)CN(CCc2ccccc2)C(=O)OC2COCOC2)c1 | IIIB |  | CEM | p24 | EC90 |  | 0.1 µM
COc1ccc(Cl)c2[nH]cc(C(=O)C(=O)N3CCN(C(=O)c4cccc(N)c4)C[C@H]3C)c12 |  |  | HeLa + HELA CD4+/CCR5 | luciferase | inhibition | 10 µM | >98%
Cc1cc(C#N)cc(C(=O)c2cc(Cl)ccc2OCC(=O)Nc2ccc(OCCCN3CC=CC3)cc2C)c1 | HXB2 | RT-K103N P225H | HeLa + HELA CD4+ | β-galactosidase | fold resistance |  | ~1
Cc1ccc(-c2ccc3c(c2)C=C(C(=O)Nc2ccc(C[N+](C)(C)C4CCOCC4)cc2)CCC3)cc1 | TB8 CLADE C |  | PBMC | p24 | inhibition | 1 µM | 100%
Cc1cc(CNC(=O)c2nc3n(c(=O)c2O)CCN(C)CC3N(C)C(=O)C(=O)N(C)C)ccc1F |  |  | MT-4 | p24 | EC95 |  | <1 µM
CC(C)CN(CC(O)CCN1CCN(Cc2cccnc2)C[C@H]1C(=O)NC(C)(C)C)S(=O)(=O)c1ccccc1 | IIIB |  | CEM | p24 | EC90 |  | 1 µM
CC(=O)c1ccc(C)cc1NC(C(N)=O)c1c(Cl)cccc1Cl | UC10-resistant (RT Y181C K101E) | RT-Y181C K101E | CEM + CEM-SS | cytopathic effect / XTT | fold resistance |  | >100
CC(C)n1c(=O)c(O)c2n(c1=O)C(COCc1ccccc1)CN(Cc1ccc(F)cc1)C2=O |  |  | MT-4 | p24 | EC95 |  | <10 µM
O=C1Nc2ccc(F)c(F)c2[C@@](/C=C/C2CC2)(C(F)(F)F)N1 |  | RT-K103N Y181C |  |  | EC90 |  | ~0.11 µM
Cc1ccc(CNC(=O)c2nc3n(c(=O)c2O)CCN(C)CC3N(C)C(=O)C(=O)N(C)C)cc1Cl |  |  | MT-4 | p24 | EC95 |  | <1 µM
CCC(=O)c1ccc(F)c([C@@H]2C[C@@H]2NC(=O)Nc2ccc(C#N)cn2)c1O | LAI | NNRTI-resistant (RT Y188C) | TZM-bl | β-galactosidase / luminescence | fold resistance |  | 0.3
COc1ccc(S(=O)(=O)N(CC2CCCC2)C[C@@H](O)CN(CCc2ccccc2)C(=O)Cc2ccccc2)cc1 | IIIB |  | CEM | p24 | EC90 |  | 1 µM
CC(C)=CCOc1cc(NC(=S)c2ccsc2C)ccc1Cl | NL4-3 (RT Y181C) | RT-Y181C | CEM + CEM-SS | cytopathic effect / XTT | fold resistance |  | 5
COc1ccc(S(=O)(=O)N(CC(C)C)C[C@@H](O)CCN(CC2CCCC2)S(=O)(=O)C2CCCS(=O)(=O)C2)cc1 | IIIB |  | CEM | p24 | EC90 |  | 1 µM
O=C(C(=O)N1CCN(C(=O)c2ccccc2)CC1)c1c[nH]c2cc(Cl)c(F)cc12 |  |  | HeLa + HELA CD4+/CCR5 | luciferase | inhibition | 10 µM | 60%
Cc1c(O)cccc1C(=O)N[C@@H](Cc1ccccc1)C(O)CN1C[C@H]2CCS[C@H]2C[C@H]1C(=O)NC(C)(C)C | HXB2 |  | CEM + CEM-SS | cytopathic effect / XTT | EC95 |  | 1.36 µM
CC(C)CN(C(=O)C(=O)C(=O)c1ccccc1C(=O)NC(C)(C)C)S(=O)(=O)c1ccccc1 | IIIB |  | CEM | p24 | EC90 |  | 1 µM
CC(C)=CCOc1cc(NC(=S)c2ccsc2C)ccc1Cl | NL4-3 | RT-V179D | CEM + CEM-SS | p24 | fold resistance |  | 1
O=C(NCCc1ccccc1)Nc1nc2ccc(Cl)cc2s1 |  |  | MT-4 | cytopathic effect / XTT | inhibition | 100 µg/mL | 49–68%
CC(C)C1=C2[C@H]3CC[C@@H]4[C@@]5(C)CC[C@H](OC(=O)[C@H]6C[C@@H](C(=O)O)C6(C)C)C(C)(C)[C@@H]5CC[C@@]4(C)[C@]3(C)CC[C@@]2([C@@H](O)CN(CCN(C)C)C(=O)c2ccccc2Cl)CC1=O | 92HT599 |  | MT-2 | p24 / ELISA | EC50 |  | <1 µM
COc1ccnc2[nH]cc(C(=O)C(=O)N3C4CCC3CN(C(=O)c3ccccc3)C4)c12 | QH0692 |  | TZM-bl | luciferase | EC99 |  | 133 µM
COc1ccc(S(=O)(=O)N(CC2CCCC2)C(=O)C(=O)C(=O)[C@@H](Cc2ccccc2)NC(=O)OC(C)(C)C)cc1 | IIIB |  | CEM | p24 | EC90 |  | 1 µM
CN1CCn2c(nc(C(=O)NCc3ccc(F)cc3)c(O)c2=O)C1(C)C |  |  | MT-4 | p24 | EC95 |  | <1 µM
Cc1cc(C#N)cc(C(=O)c2cc(Cl)ccc2OCC(=O)Nc2ccc(S(N)(=O)=O)cc2C)c1 | HXB2 (RT-K103N G190A) Recombinant | RT-K103N G190A | HeLa + HELA CD4+ | β-galactosidase | fold resistance |  | ~1

A second listing of 5 rows from above:

| structure | strain or isolate | changes | cells | read by | read-out | dose | result |
|---|---|---|---|---|---|---|---|
| O=C(NCCc1ccccc1)Nc1nc2ccc(F)cc2s1 |  |  | MT-4 | RT activity | inhibition | 0.1 µg/mL | 1% |
| O=C(C(=O)N1CCN(C(=O)c2ccccc2)CC1)c1c[nH]c2cc(Cl)c(F)cc12 |  |  | HeLa + HELA CD4+/CCR5 | luciferase | inhibition | 10 µM | 60% |
| O=C(NCc1ccc(F)cc1)c1nc2n(c(=O)c1O)CCN(Cc1cocn1)C21CC1 |  |  | MT-4 | p24 | EC95 |  | <1 µM |
| Cc1nc(NC(=O)NCCc2ccccc2)sc1C |  |  | MT-4 | RT activity | inhibition | 1 µg/mL | 23% |
| Nc1nc(=O)n([C@H]2C=C[C@@H](CO)O2)cc1F | XM-AZT-resistant | RT-M41L D67N K70R T215Y K219Q | MT-4 | p24 | EC90 |  | 1.6 µM |